Measured values from several laboratories, pooled; numbers as filed in NIAID ChemDB.

Shared fields: whole-cell or culture tests; organism: Bovine viral diarrhea virus; endpoint: EC50

Conditions beyond the fields shown may differ between rows.

smiles	strain	cells	read by	value
COCCCCCCCCCN1C[C@H](O)[C@@H](O)[C@H](O)[C@H]1CO		MDBK	plaque count	3 µM
NC(=O)c1ncn([C@@H]2O[C@H](CO)[C@@H](O)[C@H]2O)n1		MDBK	cytopathic effect	63 µM
O[C@H]1[C@H](O)[C@@H](O)CN2CC[C@H](O)[C@H]12		MDBK	cytopathic effect	400 µM
NC(=O)c1ncn([C@@H]2O[C@H](CO)[C@@H](O)[C@H]2O)c1O		MDBK	plaque count	14.2 µM
CC1(C)OCC(CCCCN2C[C@H](O)[C@@H](O)[C@H](O)[C@H]2CO)O1		MDBK	plaque count	30 µM
CCCCCCCCCN1C[C@H](O)[C@@H](O)[C@H](O)[C@H]1CO		MDBK	plaque count	105 µM
COc1cc(O)c(CC=C(C)C)c2c1C(=O)CC(c1ccc(O)cc1)O2	NADL	MDBK	cytopathic effect	>2.5 µg/mL
CC1(C)C2CCC(N3C[C@H](O)[C@@H](O)[C@H](O)[C@H]3CO)C1C2		MDBK	plaque count	150 µM
C[C@@H]1CC[C@H]2[C@@H](C)C(=O)O[C@@H]3OC4(C)CC[C@@H]1[C@]32OO4	PE515	MDBK	MTS	0.4 µg/mL
Nc1nc(=O)n2ccn([C@@H]3O[C@H](CO)[C@@H](O)[C@H]3O)c2n1		VERO	cytopathic effect	0.6 µg/mL
CO[C@H]1O[C@@H]2O[C@@]3(C)CC[C@H]4[C@H](C)CC[C@@H]([C@H]1C)[C@@]24OO3	PE515	MDBK	MTS	0.3 µg/mL
OC[C@@H]1[C@@H](O)[C@H](O)[C@@H](O)CN1CCCCC1CCCCC1		MDBK	plaque count	3 µM
NC(=O)c1ncn([C@@H]2O[C@H](COP(=O)(O)OP(=O)(O)OP(=O)(O)O)[C@@H](O)[C@H]2O)n1				50 µM
OC[C@H]1NC[C@H](O)[C@@H](O)[C@@H]1O		MDBK	plaque count	150–300 µM
NC12CC3CC(CC(C3)C1)C2		MDBK	cytopathic effect	125 µM
C[C@@H]1CC[C@H]2[C@@H](C)C(=O)O[C@@H]3OC4(C)CC[C@@H]1[C@]32OO4	C24V	EBTR	cytopathic effect	<10 µM

a–b is a range or a potency band. ECn: concentration that inhibits the pathogen or its effect by n%. Blank or dashed fields: not listed here.